Results deposited as PubChem BioAssay AID624099 (ICCB-Longwood, 2012).
The whole screen tested about 21,000 reagents; below is a part drawn at random. 497 of them (2.4%) count as active. 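Higher z means weaker E2 silencing; only reporter increases were scored, and knock-downs that hurt cell survival may mask genuine repressor factors.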 No sequences are given here.

Screen: 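Knock-downs relieving repression by E2 of an HPV18 LCR luciferase reporter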 (primary screen)
Cell system: human C33A cervical carcinoma cells (HPV-negative) stably expressing BPV1 E2 and an HPV18 LCR luciferase reporter
Knock-down reagent: siRNA pool against human genes, 40 nM
Time to read-out: 72 h
Measured: 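Per-well luciferase luminescence, z-scored on each plate against the plate mean and SD with control wells left out, then averaged across three replicate plates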
Scale: mean z-score and z-score: higher = stronger reporter signal, weaker E2 silencing
Hit rule: 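Mean z ≥ 2 together with z ≥ 2 in two or more of the three replicates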

Knock-down of TENT5C (GeneID 54855) resulted in: mean z-score -1; z-score, replicate A = -1.2; z-score, replicate B = -0.96; z-score, replicate C = -0.84; inactive. Depletion of LINC03106 (GeneID 100506422) came out at: mean z-score -0.94; z-score, replicate A = -0.93; z-score, replicate B = -0.91; z-score, replicate C = -0.97; inactive. HIGD1B (GeneID 51751) gave mean z-score -0.15; z-score, replicate A = -0.19; z-score, replicate B = -0.13; z-score, replicate C = -0.12; inactive. Depletion of HAS3 (GeneID 3038) resulted in: mean z-score -0.48; z-score, replicate A = -0.59; z-score, replicate B = -0.5; z-score, replicate C = -0.35; inactive. Knock-down of RPSAP24 (GeneID 391462) gave: mean z-score -0.52; z-score, replicate A = -0.65; z-score, replicate B = -0.55; z-score, replicate C = -0.37; inactive. FCRLA (GeneID 84824) scored mean z-score 0.21; z-score, replicate A = 0.44; z-score, replicate B = 0.07; z-score, replicate C = 0.13; inactive.

CCAR2 (GeneID 57805) showed mean z-score -1.42; z-score, replicate A = -1.6; z-score, replicate B = -1.43; z-score, replicate C = -1.22; inactive. DRAM2 (GeneID 128338) showed mean z-score -1.08; z-score, replicate A = -1.03; z-score, replicate B = -0.92; z-score, replicate C = -1.3; inactive. After knock-down of FNDC3B (GeneID 64778) the results were mean z-score -1.08; z-score, replicate A = -0.79; z-score, replicate B = -1.41; z-score, replicate C = -1.04; inactive. OR5H14 (GeneID 403273) scored mean z-score 0.93; z-score, replicate A = 0.91; z-score, replicate B = 0.74; z-score, replicate C = 1.13; inactive. With knock-down of HECA (GeneID 51696), the record shows mean z-score 0.63; z-score, replicate A = 0.64; z-score, replicate B = 0.69; z-score, replicate C = 0.56; inactive. For EPB41 (GeneID 2035) the deposit lists mean z-score 1.25; z-score, replicate A = 1.26; z-score, replicate B = 1.3; z-score, replicate C = 1.2; inactive.

HGF (GeneID 3082) showed mean z-score 0.09; z-score, replicate A = 0.28; z-score, replicate B = -0.07; z-score, replicate C = 0.06; inactive. SLC3A1 (GeneID 6519) scored mean z-score -0.88; z-score, replicate A = -1.19; z-score, replicate B = -0.96; z-score, replicate C = -0.48; inactive. For MESP1 (GeneID 55897), the values are mean z-score -0.03; z-score, replicate A = -0.24; z-score, replicate B = -0.1; z-score, replicate C = 0.26; inactive. For MAPKAPK2 (GeneID 9261) the deposit lists mean z-score -0.83; z-score, replicate A = -1.06; z-score, replicate B = -0.68; z-score, replicate C = -0.76; inactive. Knock-down of EED (GeneID 8726) gave: mean z-score 0.05; z-score, replicate A = 0; z-score, replicate B = -0.02; z-score, replicate C = 0.15; inactive. With knock-down of HEPH (GeneID 9843) the results were mean z-score 1.26; z-score, replicate A = 1.2; z-score, replicate B = 1.29; z-score, replicate C = 1.28; inactive.

ZNF214 (GeneID 7761) showed mean z-score -0.75; z-score, replicate A = -0.73; z-score, replicate B = -0.65; z-score, replicate C = -0.88; inactive. Against AQP7P1 (GeneID 375719) the deposit lists mean z-score -0.86; z-score, replicate A = -1.07; z-score, replicate B = -0.68; z-score, replicate C = -0.84; inactive. LOC284240 (GeneID 284240) gave mean z-score -0.58; z-score, replicate A = -0.62; z-score, replicate B = -0.66; z-score, replicate C = -0.46; inactive. Silencing of PABIR3 (GeneID 159091) came out at: mean z-score -1.4; z-score, replicate A = -1.57; z-score, replicate B = -1.46; z-score, replicate C = -1.17; inactive. For LOC339583 (retired record) (GeneID 339583), the entry reads mean z-score 0.48; z-score, replicate A = 0.64; z-score, replicate B = 0.3; z-score, replicate C = 0.49; inactive. After knock-down of FNDC4 (GeneID 64838), the screen gave mean z-score 0.04; z-score, replicate A = 0.35; z-score, replicate B = -0.04; z-score, replicate C = -0.17; inactive.

After knock-down of LOC401101 (retired record) (GeneID 401101) the results were mean z-score -2.15; z-score, replicate A = -1.99; z-score, replicate B = -2.42; z-score, replicate C = -2.02; inactive. Silencing of GPI (GeneID 2821) came out at: mean z-score -0.45; z-score, replicate A = -0.27; z-score, replicate B = -0.47; z-score, replicate C = -0.61; inactive. Depletion of LOXL2 (GeneID 4017) gave: mean z-score -1.21; z-score, replicate A = -1.09; z-score, replicate B = -0.93; z-score, replicate C = -1.61; inactive.

2 neighbouring reagents already listed, for reference:
PABIR3 (GeneID 159091): mean z-score = -1.4; z-score, replicate A = -1.57; z-score, replicate B = -1.46; z-score, replicate C = -1.17; activity call = inactive
LOC339583 (retired record) (GeneID 339583): mean z-score = 0.48; z-score, replicate A = 0.64; z-score, replicate B = 0.3; z-score, replicate C = 0.49; activity call = inactive
